Test results from PubChem BioAssay AID504690 (Sanford-Burnham Center for Chemical Genomics, 2011).
The list shows a part of the results, in another mix than the full data. The source made the active and inactive calls.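 Rule for the calls: active = inhibition reaching at least a set limit at 20 µM in the primary screen (cut at about 59% in these data); inactive = the rest.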

Test system: glucose-6-phosphate dehydrogenase-6-phosphogluconolactonase (Plasmodium falciparum 3D7)
Test: PfG6PD enzyme inhibitors, primary screen, biochemical, fluorescence intensity, uHTS (AID 504690);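 note: 0% = DMSO wells with substrate and 100% = DMSO wells lacking glucose-6-phosphate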
Settings: PfGluPho enzyme, NADPH resazurin-diaphorase fluorescence; at 20 µM; stronger effect = higher value

Row | SMILES | inhibition
1 | CCOC(=O)C(CC)C1=NC(C)(C)Cc2ccccc21.O=[N+]([O-])c1cc([N+](=O)[O-])c(O)c([N+](=O)[O-])c1 (stereo unspecified) | inactive: -12.2%
2 | CC1=C2N=C(C=C3N=C(C(C)=C4[N-][C@@](C)([C@@H]5N=C1[C@](C)(CCC(=O)NC[C@@H](C)OP(=O)([O-])O[C@H]1[C@@H](O)[C@@H](n6cnc7cc(C)c(C)cc76)O[C@@H]1CO)[C@H]5CC(N)=O)[C@@](C)(CC(N)=O)[C@@H]4CCC(N)=O)[C@@](C)(CC(N)=O)[C@@H]3CCC(N)=O)C(C)(C)[C@@H]2CCC(N)=O.[C-]#N.[Co+3] | inactive: -2.21%
3 | O=[N+]([O-])c1cc([N+](=O)[O-])c(Nc2nnnn2CCO)c([N+](=O)[O-])c1 | inactive: -4.7%
4 | CCCOc1ccc(NP(C)(=O)Oc2ccc(Cl)cc2)cc1 (stereo unspecified) | inactive: 6.21%
5 | CP(=O)(Nc1ccc(SC(F)(F)F)cc1)Oc1ccccc1 (stereo unspecified) | inactive: 6.04%
6 | CN1CCCCC1COC(=O)C1(O)c2ccccc2CCc2ccccc21 (stereo unspecified) | inactive: 3.36%
7 | COc1ccccc1OP(C)(=O)Nc1c(C)cccc1C (stereo unspecified) | inactive: -2.33%
8 | O=[N+]([O-])c1cc([N+](=O)[O-])c(-n2nnc3ccccc32)c([N+](=O)[O-])c1 | inactive: -28%
9 | Cc1nc2ccc3ccccc3c2s1.O=[N+]([O-])c1cc([N+](=O)[O-])c(O)c([N+](=O)[O-])c1 | inactive: 8.8%
10 | O=[N+]([O-])c1cc([N+](=O)[O-])c(-c2cnn(-c3ccccc3)c2)c([N+](=O)[O-])c1 | inactive: 33%
11 | CCOC(=O)c1ccc(NP(C)(=O)Oc2cc(C)cc(C)c2)cc1 (stereo unspecified) | inactive: 1.17%
12 | Cc1cc(C)cc(OP(C)(=O)Nc2ccc(C)cc2C)c1 (stereo unspecified) | inactive: -13.8%
13 | COc1ccccc1OP(C)(=O)Nc1cccc(Br)c1 (stereo unspecified) | inactive: -3.2%
14 | Cc1ccc(C)c(NP(C)(=O)Oc2ccccc2)c1 (stereo unspecified) | inactive: -12.2%
15 | Cc1cc(C)cc(OP(C)(=O)Nc2ccccn2)c1 (stereo unspecified) | inactive: -8.36%
16 | CP(=O)(Nc1cccc(Br)c1)Oc1ccccc1 (stereo unspecified) | inactive: -5.61%
17 | O=C(O)c1cccc(Nc2c([N+](=O)[O-])cc([N+](=O)[O-])cc2[N+](=O)[O-])c1 | inactive: -26.3%
18 | CC1=NCCc2c1[nH]c1ccccc21.O=[N+]([O-])c1cc([N+](=O)[O-])c(O)c([N+](=O)[O-])c1 | inactive: -7.89%
19 | O=[N+]([O-])c1ccc2c(c1)C=Nc1ccccc1O2 | inactive: 41.7%

Row | SMILES | inhibition
20 | Cc1cccc(C)c1OP(C)(N)=O (stereo unspecified) | inactive: -9.63%
21 | CC(C)(C)c1ccc(OP(C)(=O)Nc2ccc(SC(F)(F)F)cc2)cc1 (stereo unspecified) | inactive: 7.29%
22 | O=[N+]([O-])c1cc([N+](=O)[O-])c(Nc2cccnc2)c([N+](=O)[O-])c1 | inactive: 29.5%
23 | Cc1cc(C)cc(OP(C)(N)=O)c1 (stereo unspecified) | inactive: -5.87%
24 | COc1ccc(OP(C)(=O)Nc2cccc(F)c2)cc1 (stereo unspecified) | inactive: -11.3%
25 | COc1ccccc1OP(C)(=O)Nc1cc(Cl)ccc1C (stereo unspecified) | inactive: 15.7%
26 | Cc1ccc(NP(C)(=O)Oc2ccccc2)c(C)c1 (stereo unspecified) | inactive: -4.17%
27 | COc1ccccc1OP(C)(=O)Nc1ccc(C)cc1 (stereo unspecified) | inactive: -11.1%
28 | CCOC(=O)c1ccc(NP(C)(=O)Oc2ccccc2)cc1 (stereo unspecified) | inactive: -0.56%
29 | CCN(CC)CCCOC(=O)C(O)(c1ccccc1)c1ccccc1 | inactive: -1.93%
30 | Cc1cc(C)cc(OP(C)(=O)Nc2ccc(SC(F)(F)F)cc2)c1 (stereo unspecified) | inactive: 7.91%
31 | CP(=O)(NC(=O)Nc1ccccc1)Oc1ccccc1 (stereo unspecified) | inactive: 4.19%
32 | CCc1ccc(OP(C)(=O)N2CCN(c3ccc([N+](=O)[O-])cc3)CC2)cc1 (stereo unspecified) | inactive: 17.7%
33 | CP(=O)(Oc1ccccc1)OC(c1ccccc1)C(F)(F)F (stereo unspecified) | inactive: 2.59%
34 | CP(=O)(Nc1ccc(SC(F)(F)F)cc1)Oc1ccc(Cl)cc1 (stereo unspecified) | inactive: 9.98%
35 | Cc1cccc(C)c1OP(C)(=O)Nc1ccc(SC(F)(F)F)cc1 (stereo unspecified) | inactive: -12.5%
36 | Cc1ccc(Nc2c([N+](=O)[O-])cc([N+](=O)[O-])cc2[N+](=O)[O-])cc1 | inactive: 22.9%
37 | CP(=O)(Nc1ccccn1)Oc1ccc(Cl)cc1 (stereo unspecified) | inactive: 9.2%
38 | O=[N+]([O-])c1cc([N+](=O)[O-])c(O)c([N+](=O)[O-])c1.c1ccc(Oc2ccncc2)cc1 | inactive: -27.7%

Row | SMILES | inhibition
39 | CCOC(=O)c1ccc(NP(C)(=O)Oc2ccc(OC)cc2)cc1 (stereo unspecified) | inactive: -10.9%
40 | CCOP(C)(=S)SCC(=O)NC(C)C(=O)O (stereo unspecified) | inactive: -8.76%
41 | CP(=O)(Nc1ccccc1Br)Oc1ccccc1 (stereo unspecified) | inactive: 11.2%
42 | COc1ccccc1OP(C)(=O)Nc1ccccc1 (stereo unspecified) | inactive: -0.55%
43 | CP(=S)(Nn1cnnc1)Oc1ccccc1 (stereo unspecified) | inactive: -8.67%
44 | CCOC(=O)c1ccc(NP(C)(=O)Oc2ccc(Cl)cc2)cc1 (stereo unspecified) | inactive: 5.13%
45 | CP(=O)(OC12CC3CC(CC(C3)C1)C2)OC12CC3CC(CC(C3)C1)C2 | inactive: 8.92%
46 | Nc1ccc2c(ccc3cccnc32)n1.O=[N+]([O-])c1cc([N+](=O)[O-])c(O)c([N+](=O)[O-])c1 | inactive: 0.36%
47 | O=C(OCCCN1CCCC1)C(O)(c1ccccc1)C1CCCCC1 (stereo unspecified) | inactive: 11.1%
48 | COc1ccccc1OP(C)(=O)Nc1c(C)n(C)n(-c2ccccc2)c1=O (stereo unspecified) | inactive: -12.4%
49 | CCc1ccc(OP(C)(=O)Nc2cccnc2)cc1 (stereo unspecified) | inactive: 9.27%
50 | CP(=O)(Oc1ccccc1)N1CCOC1=O (stereo unspecified) | inactive: -1.41%
51 | COc1ccc(OP(C)(=O)Nc2ccc(Br)cc2)cc1 (stereo unspecified) | inactive: -6.95%
52 | CCN(CC)CC(O)COC(=O)C(O)(c1ccccc1)C1CCCCC1 (stereo unspecified) | inactive: 0.63%
53 | CN(C)C(=O)c1c([N+](=O)[O-])cc([N+](=O)[O-])cc1[N+](=O)[O-] | inactive: 48.1%
54 | COc1ccccc1OP(C)(=O)Nc1ccccc1Br (stereo unspecified) | inactive: 0.1%
55 | CC(C)(C)c1ccc(OP(C)(=O)O)cc1 | inactive: -4.97%
56 | CP(=O)(Nc1ccc(Cl)cc1)Oc1ccc(F)cc1 (stereo unspecified) | inactive: -8.07%
